Laboratory results: patent US6495580B1, “Compounds, compositions and methods for treating or preventing pneumovirus infection and associated diseases” (ViroPharma Incorporated, priority 1998, dated 2002)

What follows are compounds tested on normal cells (assay: MTT cytotoxicity assay). Conditions: selective index, CC75/IC50 (human RSV subtype A).
Format: cell-based
Protocol: This assay measures cell viability, and therefore cytotoxicity, by quantitatively detecting the in situ reduction of 3-(4,5-dimethylthiazol-2-yl)-2,5-diphenyltetrazolium bromide (MTT) by viable cells. Cells are seeded in 96-well plates in DMEM containing 5% FBS at a density of 4×10^3 cells per well. After incubation for 4 hours at 37° C. and 5% CO2, 2-fold serial dilutions of compound in 1% DMSO (or solvent alone) are added to quadruplicate wells and the plates are incubated for an additional 68 hours at 37° C. and 5% CO2, which is equivalent to 3 to 4 cell doublings. The culture medium is removed, and the cells are treated with 1 mg/ml of MTT in phosphate-buffered saline, pH 7.2 for 4 hours at 37° C. and 5% CO2. After removal of the unreduced MTT, the reduced blue formazan crystals produced by the viable cells are solubilized by the addition of 0.04N HCl in isopropanol. The optical density at 570 nm (OD570) of each well is read using a suitable microplate reader. Cell viability is expressed as the percentage of optical density for compound-treated cells relative to the optical density of solvent alone-treated control wells. The highest compound concentration resulting in an optical density of≧75% of the control is represented as the cellular cytotoxicity value (CC75).
`Nc1nnn(N=Cc2ccc(C(c3ccc(O)cc3)c3ccc(C=Nn4nnc(N)n4)cc3O)c(O)c2)n1` (stereo not drawn) [Example 5, 5,5′-Bis[2-(((5-amino-2H-tetrazolyl)imino)methyl)]-2,2′,4″-methylidynetrisphenol] was tested, and the SI was >556. `Nc1nnnn1N=Cc1ccc(O)c(Cc2cc(C=Nn3nnnc3N)ccc2O)c1` [Example 8] gave an SI of 25. `Nc1nnnn1N=Cc1ccc(C(c2ccccc2)c2ccc(C=Nn3nnnc3N)cc2O)c(O)c1` (stereo not drawn) [Example 7, 5,5′-Bis[1-(((5-amino-1H-tetrazolyl)imino)methyl)]-2,2′-benzylidenebisphenol] was tested, and the SI was >6,250. `NC(=O)c1ncn([C@@H]2O[C@H](CO)[C@@H](O)[C@H]2O)n1` [Ribavirin, 1-beta-D-ribofuranosyl-1H-1,2,4-triazole-3-carboxamide, reference compound] was tested, and the SI was <1. `Nc1nncn1N=Cc1ccc(O)c(C(c2ccc(O)cc2)c2cc(C=Nn3cnnc3N)ccc2O)c1` (stereo not drawn) [Example 4, 5,5′-Bis[4-(((3-amino-4H-1,2,4-triazolyl)imino)methyl)]-2,2′,4″-methylidyne trisphenol] showed an SI of 171. With `Nc1nnnn1N=Cc1ccc(O)c(C(c2ccc(O)cc2)c2cc(C=Nn3nnnc3N)ccc2O)c1` (stereo not drawn) [Example 1, 5,5′-Bis[1-(((5-amino-1H-tetrazolyl)imino)methyl)]2,2′,4″-methylidynetrisphenol] the SI was >12,500. `Cc1nnnn1/N=C/c1ccc(O)c(C(c2ccc(O)cc2)c2cc(/C=N/n3nnnc3C)ccc2O)c1` [Example 6, 5,5′-Bis[1-(((5-methyl-1H-tetrazolyl)imino)methyl)]-2,2′,4″-methylidynetrisphenol] was tested, and the SI was 3,100. In the case of `COc1ccc(C(c2ccc(C=Nn3nnnc3N)cc2O)c2ccc(C=Nn3nnnc3N)cc2O)cc1` (stereo not drawn) [Example 2, 5,5′-Bis[1-(((5-amino-1H-tetrazolyl)imino)methyl)]-4″-methoxyphenyl-2,2′-benzylidenebisphenol], the SI is reported as >150,000. For `Nc1ncnn1N=Cc1ccc(O)c(C(c2ccc(O)cc2)c2cc(C=Nn3ncnc3N)ccc2O)c1` (stereo not drawn) [Example 3, 5,5′-Bis[1-(((5-amino-1H-1,2,4 triazolyl)imino)methyl)]-2,2′, 4″t-methylidyne trisphenol], the SI was 250.
